Test system: human erythrocytes
Assay: Hemolysis assay, HC50 determination
Assay type: cell-based
Experimental: Hemolysis assay (human erythrocytes)–HC50 determination. These were performed as described previously.

Compound: CC(C)CCc1cn(-c2c(OCC(=O)N[C@H](CCCCN)C(=O)N[C@H](CCCNC(=N)N)Cn3cc(C4CCCCC4)nn3)ccc3ccccc23)nn1.Cl.Cl [Compound 40, (R)-6-Amino-N-((R)-1-(4-cyclohexyl-1H-1,2,3-triazol-1-yl)-5-guanidinopentan-2-yl)-2-(2-((1-(4-isopentyl-1H-1,2,3-triazol-1-yl)naphthalen-2-yl)oxy)acetamido)hexanamide dihydrochloride]
- hemolytic activity against human erythrocytes relative to IC50 values against C. difficile: 2 fold

Compound: CC(C)CCc1cn(-c2c(OCC(=O)N[C@H](CCCCN)C(=O)N[C@H](CCCNC(=N)N)Cn3cc(Cc4ccccc4)nn3)ccc3ccccc23)nn1.Cl.Cl [Compound 42]
- hemolytic activity against human erythrocytes relative to IC50 values against C. difficile: 2 fold

Source: article PMC8388771, “Cationic Peptidomimetic Amphiphiles Having a N-Aryl- or N-Naphthyl-1,2,3-Triazole Core Structure Targeting Clostridioides (Clostridium) difficile: Synthesis, Antibacterial Evaluation, and an In Vivo C. difficile Infection Model” (Antibiotics, 2021)
